{"source": "paper PMC6082571", "key": {"NFATc1 (NFAT2) [1]": {"biological_target": "T1, NFATc1 (NFAT2) (UniProt O95644)", "T1 sequence (looked up, limits assumed)": "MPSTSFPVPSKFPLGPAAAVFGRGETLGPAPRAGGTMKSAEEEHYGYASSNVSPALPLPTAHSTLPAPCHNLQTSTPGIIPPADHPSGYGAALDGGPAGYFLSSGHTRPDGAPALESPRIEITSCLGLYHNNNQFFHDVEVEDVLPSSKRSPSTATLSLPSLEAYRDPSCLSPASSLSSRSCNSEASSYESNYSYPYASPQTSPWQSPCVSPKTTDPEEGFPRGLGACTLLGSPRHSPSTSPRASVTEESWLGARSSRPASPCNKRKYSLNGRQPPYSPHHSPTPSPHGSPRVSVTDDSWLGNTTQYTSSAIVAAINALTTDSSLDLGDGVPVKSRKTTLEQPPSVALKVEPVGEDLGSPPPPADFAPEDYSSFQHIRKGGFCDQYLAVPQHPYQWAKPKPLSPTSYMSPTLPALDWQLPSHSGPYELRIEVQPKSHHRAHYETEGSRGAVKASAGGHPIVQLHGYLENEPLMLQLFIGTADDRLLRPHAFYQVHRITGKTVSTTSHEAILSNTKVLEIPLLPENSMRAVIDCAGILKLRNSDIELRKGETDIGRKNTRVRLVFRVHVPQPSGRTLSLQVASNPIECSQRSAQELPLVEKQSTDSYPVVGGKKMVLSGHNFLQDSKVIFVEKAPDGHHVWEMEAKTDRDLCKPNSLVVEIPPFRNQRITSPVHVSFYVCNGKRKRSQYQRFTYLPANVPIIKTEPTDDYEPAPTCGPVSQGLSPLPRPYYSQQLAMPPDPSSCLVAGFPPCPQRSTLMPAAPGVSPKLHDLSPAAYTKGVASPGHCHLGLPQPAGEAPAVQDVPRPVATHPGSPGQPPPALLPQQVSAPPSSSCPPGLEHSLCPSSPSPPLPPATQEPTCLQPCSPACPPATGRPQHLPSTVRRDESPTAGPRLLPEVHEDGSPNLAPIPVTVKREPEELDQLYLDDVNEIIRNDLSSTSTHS", "assay": "competition with a labelled probe", "conditions": "10X unlabeled vs Zp-V3 -155/-127 probe; 50 mM KCl, 25 mM Hepes pH 7.6, 10% glycerol, 1 mM EDTA, 0.5 mM spermidine, 0.5 mM PMSF, 1 mM DTT, 2 ug poly(dI/dC), 2 ug BJAB nuclear extract, room temperature; protein in an extract; label: unlabeled"}, "NFATc1 (NFAT2) [2]": {"biological_target": "T1, NFATc1 (NFAT2)", "assay": "EMSA with antibody block", "conditions": "anti-NFATc1 blocks most of the binding, anti-C/EBPa little effect, seen with and without anti-IgM; 50 mM KCl, 25 mM Hepes pH 7.6, 10% glycerol, 1 mM EDTA, 0.5 mM spermidine, 0.5 mM PMSF, 1 mM DTT, 2 ug poly(dI/dC), 2 ug BJAB nuclear extract, room temperature; protein in an extract; label: 32P"}, "NFATc1 (NFAT2) [3]": {"biological_target": "T1, NFATc1 (NFAT2)", "assay": "EMSA", "conditions": "NFAT-alone band; 50 mM KCl, 25 mM Hepes pH 7.6, 10% glycerol, 1 mM EDTA, 0.5 mM spermidine, 0.5 mM PMSF, 1 mM DTT, 2 ug poly(dI/dC), 2 ug BJAB nuclear extract, room temperature; protein in an extract; label: 32P"}, "[4]": {"test_system": "NFATc1 (NFAT2) + cFos (AP1 component)", "assay": "EMSA supershift", "conditions": "anti-IgM treated extract only, supershifted by anti-cFos, not anti-XBP1, competed by AP1 and NFAT consensus oligos; 50 mM KCl, 25 mM Hepes pH 7.6, 10% glycerol, 1 mM EDTA, 0.5 mM spermidine, 0.5 mM PMSF, 1 mM DTT, 2 ug poly(dI/dC), 2 ug BJAB nuclear extract, room temperature; protein in an extract; label: 32P"}}, "note": "For at least one entry, the source does not settle the construct or the ends of the probe. Where cells or extracts were used, other partners may take part. For some of these results: At least one verdict was read from the data and is not stated in words by the source. For some of these results: Protein sequences can lack the tags named with them."}
{"sequence": "AGAAAGGAGGAAAAACTGTTTCATACAGAAGGCGTT (double strand) [NFAT (1) consensus]", "values": [{"measurement": "binding result", "setting": "NFATc1 (NFAT2) [1]", "value": "binds"}]}
{"sequence": "CCTCCTCCTCTTTTGGAAACTATGCATGA (double strand) [Zp-V3 -155 to -127]", "values": [{"measurement": "binding result", "setting": "NFATc1 (NFAT2) [2]", "value": "binds"}]}
{"sequence": "CCTCCTCCTCTTTTGGAAACTATGCATGAGCCACAG (double strand) [Zp-V3 -155 to -120]", "values": [{"measurement": "binding result", "setting": "NFATc1 (NFAT2) [3]", "value": "binds"}, {"measurement": "binding result", "setting": "[4]", "value": "binds"}]}
